Compound potency records, mixed from different reports. Data source: NIAID ChemDB in PubChem.

All rows: whole-cell or culture tests; species: Herpes simplex virus 1; cell line: HeLa; endpoint: EC50

Rows are shuffled and stem from different studies.

| smiles | strain or isolate | method | value |
|---|---|---|---|
| CC(=O)N[C@H]1[C@@H](OC(=O)NS(=O)(=O)OC[C@H]2O[C@@H](n3ccc(=O)[nH]c3=O)[C@H](O)[C@@H]2O)O[C@H](COC(C)=O)[C@@H](OC(C)=O)[C@@H]1OC(C)=O | KOS | plaque count | >575 µM |
| Cc1cn([C@@H]2C[C@@H](O)[C@H](CO)O2)c(=O)[nH]c1=O | - | plaque count | 25 µM |
| CC(=O)OC1CN2CCC1CC2 | KOS | cytopathic effect | >400 µg/mL |
| COc1cc(O)c2c(=O)cc(-c3ccc(OC)c(-c4c(O)cc(O)c5c(=O)cc(-c6ccc(O)cc6)oc45)c3)oc2c1 | HF | plaque count | 0.91 µg/mL |
| COC(=O)[C@@H]1[C@H]2C[C@H]3c4[nH]c5ccccc5c4CCN3C[C@@H]2CC[C@@H]1O | KOS | cytopathic effect | >200 µg/mL |
| COC(=O)[C@]1(C)CCC[C@@]2(C)[C@H]1C(=O)CC1CC(=O)[C@]3(C)CC[C@]12C3 | F | plaque count | 27.7 µM |
| CC(=O)N[C@H]1[C@@H](OC(=O)NS(=O)(=O)OC[C@H]2O[C@@H](n3ccc(=O)[nH]c3=O)[C@H](OC(C)C)[C@@H]2OC(C)C)O[C@H](COC(C)=O)[C@@H](OC(C)=O)[C@@H]1OC(C)=O | KOS | plaque count | >270 µM |
| O=C(O)[C@H]1O[C@@H](Oc2cccc3cccnc23)[C@H](O)[C@@H](O)[C@@H]1O | KOS | cytopathic effect | >200 µg/mL |
| Cc1c(C(N)=O)ncn1C1CC(O)C(CO)O1 | - | cytopathic effect | 150 µg/mL |
| C[C@H](Oc1ccc(Cl)cc1)C(=O)O | TYLER | plaque count | 800 µM |
| NC(=O)c1csc([C@@H]2O[C@H](CO)[C@@H](O)[C@H]2O)n1 | KOS | cytopathic effect | 130 µg/mL |
| CC1(C)OC2C(O1)[C@@H](COC(N)=O)O[C@H]2n1ccc(=O)[nH]c1=O | KOS | plaque count | >660 µM |
| COC(=O)[C@]1(C)CCC[C@@]2(C)[C@H]1[C@H](O)CC1C[C@@H](O)[C@]3(C)CC[C@]12C3 | F | plaque count | 31.4 µM |
| O=c1[nH]cnc2[nH]ncc12 | KOS | cytopathic effect | >200 µg/mL |
| Cc1cc(=Nc2ccc3c(c2)c(N)cc(C)[n+]3C)nc(N)n1C | KOS | plaque count | 60 µM |
| CO[C@H]1[C@@H](O)[C@H](N)[C@@H](O[C@H]2O[C@H](C(C)N)CC[C@H]2N)[C@H](O)[C@@H]1N(C)C(=O)CN | KOS | cytopathic effect | >200 µg/mL |
| CC(=O)O[C@@H]1CC2C[C@@H](O)[C@H]3[C@](C)(C(=O)O)CCC[C@]3(C)[C@]23CC[C@]1(C)C3 | F | plaque count | 146 µM |
| O=c1[nH]c(=O)n([C@H]2C[C@H](O)[C@@H](CO)O2)cc1/C=C/Br | - | plaque count | <0.001 µM |
| CCC[C@@H]1C[C@@H](C(=O)N[C@@H]([C@H]2O[C@H](SC)[C@H](O)[C@@H](O)[C@H]2O)[C@@H](C)O)N(C)C1 | KOS | cytopathic effect | >100 µg/mL |
| CC(=O)OC[C@]1(C)CCC[C@@]2(C)[C@H]1[C@H](O)CC1C[C@H](OC(C)=O)[C@]3(C)CC[C@]12C3 | F | plaque count | 59.1 µM |
| O=C[C@@H](O)[C@H](O)[C@H](O)[C@H](O)CO | KOS | cytopathic effect | >200 µg/mL |
| O=c1[nH]c(=O)n([C@H]2C[C@@H](CO)[C@H](O)C2)cc1I | - | plaque count | 2.8 µM |
| C[C@@H]1C/C=C2\SC[C@@H](NC(=O)c3coc(n3)C[C@H](O)C[C@H](O)/C=C\C=C/CNC2=O)C(=O)O1 | KOS | cytopathic effect | >200 µg/mL |
| Cc1[nH]cnc1C(N)=O | - | cytopathic effect | >200 µg/mL |

A second listing of 2 rows from above:

smiles | strain or isolate | method | value
COc1cc(O)c2c(=O)cc(-c3ccc(OC)c(-c4c(O)cc(O)c5c(=O)cc(-c6ccc(O)cc6)oc45)c3)oc2c1 | HF | plaque count | 0.91 µg/mL
Cc1cn([C@@H]2C[C@@H](O)[C@H](CO)O2)c(=O)[nH]c1=O | - | plaque count | 25 µM

An empty or dashed field is not shown. ECn is the concentration giving n% inhibition of infection, replication or growth.